This is a selection: effects in other tests are not listed, and their absence says nothing.
Key:
Adenosine A2A = Adenosine A2A (Homo sapiens, UniProt P29274); experiment: Radioligand binding assay (Eurofins Cerep); conditions: 10 μM; radioligand [^3H]CGS 21680
Opioid NOP (ORL1) = Opioid NOP (ORL1) (Homo sapiens, UniProt P41146); experiment: Radioligand binding assay (Eurofins Cerep); conditions: 10 μM; radioligand [^3H]nociceptin
[1] = test system: Estrogen receptor (non-selective); experiment: Radioligand binding assay (Eurofins Cerep); conditions: 10 μM; radioligand [^3H]estradiol
Neurokinin NK3 = Neurokinin NK3 (Homo sapiens, UniProt P29371); experiment: Radioligand binding assay (Eurofins Cerep); conditions: 10 μM; radioligand [^125I]SR 142801
Adenosine A1 = Adenosine A1 (Homo sapiens, UniProt P30542); experiment: Radioligand binding assay (Eurofins Cerep); conditions: 10 μM; radioligand [^3H]DPCPX
[2] = target: Leukotriene CysLT1 (LTD4) (Homo sapiens, UniProt Q9Y271); experiment: Radioligand binding assay (Eurofins Cerep); conditions: 10 μM; radioligand [^3H LTD4
Glutamate AMPA site = experiment: Radioligand binding assay (Eurofins Cerep); conditions: 10 μM; radioligand [^3H]AMPA; rat
Cannabinoid CB1 = Cannabinoid CB1 (Homo sapiens, UniProt P21554); experiment: Radioligand binding assay (Eurofins Cerep); conditions: 10 μM; radioligand [^3H]CP55940
[3] = test system: Ca^2+ channel (L type, dihydropyridine site); experiment: Radioligand binding assay (Eurofins Cerep); conditions: 10 μM; radioligand [^3H]nitrendipine; rat
[4] = target: Thyrotropin-releasing hormone TRH1 (Homo sapiens, UniProt P34981); experiment: Radioligand binding assay (Eurofins Cerep); conditions: 10 μM; radioligand [^3H]Me-TRH
Endothelin ETB = Endothelin ETB (Homo sapiens, UniProt P24530); experiment: Radioligand binding assay (Eurofins Cerep); conditions: 10 μM; radioligand [^125I]Endothelin-3
Histamine H1 = Histamine H1 (Homo sapiens, UniProt P35367); experiment: Radioligand binding assay (Eurofins Cerep); conditions: 10 μM; radioligand [^3H] pyrilamine
[5] = test system: Muscarinic (non-selective); experiment: Radioligand binding assay (Eurofins Cerep); conditions: 10 μM; radioligand [^3H]QNB; rat
[6] = target: Vasoactive intestinal peptide 2 (VPAC2) (Homo sapiens, UniProt P41587); experiment: Radioligand binding assay (Eurofins Cerep); conditions: 10 μM; radioligand [^125I]VIP
[7] = target: Metabotropic Glutamate receptor 5 (Homo sapiens, UniProt P41594); experiment: Radioligand binding assay (Eurofins Cerep); conditions: 10 μM; radioligand [^3H] Quisqualate
[8] = target: γ-aminobutyric acid GABAA1 (h) (α1, β2, γ2) (Homo sapiens, UniProt P14867+P47870); experiment: Radioligand binding assay (Eurofins Cerep); conditions: 10 μM; radioligand [^3H]muscimol
Cannabinoid CB2 = Cannabinoid CB2 (Homo sapiens, UniProt P34972); experiment: Radioligand binding assay (Eurofins Cerep); conditions: 10 μM; radioligand [^3H]WIN 55212-2
Neurokinin NK2 = Neurokinin NK2 (Homo sapiens, UniProt P21452); experiment: Radioligand binding assay (Eurofins Cerep); conditions: 10 μM; radioligand [^125I]NKA
Opioid κ (KOP) = Opioid κ (KOP) (Rattus norvegicus, UniProt P34975); experiment: Radioligand binding assay (Eurofins Cerep); conditions: 10 μM, radioligand [^3H]U 69593
Androgen Receptor = experiment: Radioligand binding assay (Eurofins Cerep); conditions: 10 μM; radioligand [^3H]methyltrienolone
[9] = test system: α1 adrenergic (non-selective); experiment: Radioligand binding assay (Eurofins Cerep); conditions: 10 μM; radioligand [^3H]prazosin; rat
[10] = target: human ether-a-go-go-related gene (hERG) (Homo sapiens, UniProt Q12809); experiment: hERG channel assay (hERG-CHO, automated patch-clamp); conditions: tested up to 100 μM
CYP1A2 = CYP1A2 (Homo sapiens, UniProt P05177); experiment: Cytochrome P450 inhibition assay; conditions: 10 μM; substrate 3-cyano-7ethoxycoumarin (CEC); average of 2 runs
CYP2D6 = CYP2D6 (Homo sapiens, UniProt P10635); experiment: Cytochrome P450 inhibition assay; conditions: 10 μM; substrate 7-methoxy-4-trifluoromethylcoumarin (MFC); average of 2 runs
CYP2C19 = CYP2C19 (Homo sapiens, UniProt P33261); experiment: Cytochrome P450 inhibition assay; conditions: 10 μM; substrate 3-cyano-7ethoxycoumarin (CEC); average of 2 runs
CYP2C9 = CYP2C9 (Homo sapiens, UniProt P11712); experiment: Cytochrome P450 inhibition assay; conditions: 10 μM; substrate 7-methoxy-4-trifluoromethylcoumarin (MFC); average of 2 runs
CYP2A6 = CYP2A6 (Homo sapiens, UniProt P11509); experiment: Cytochrome P450 inhibition assay; conditions: 10 μM; substrate Coumarin; average of 2 runs
CYP3A4 = CYP3A4 (Homo sapiens, UniProt P08684); experiment: Cytochrome P450 inhibition assay; conditions: 10 μM; substrate 7-benzyloxy-4-trifluoromethylcoumarin (BFC); average of 2 runs
[11] = test system: mice with oxaliplatin-induced peripheral neuropathy; experiment: Oxaliplatin-induced peripheral neuropathy in mice, cold-plate test

Protein sequences, listed by entry. Tags and fused reporters are not part of them. Residues count along the entry.
UniProt Q9Y271, whole entry: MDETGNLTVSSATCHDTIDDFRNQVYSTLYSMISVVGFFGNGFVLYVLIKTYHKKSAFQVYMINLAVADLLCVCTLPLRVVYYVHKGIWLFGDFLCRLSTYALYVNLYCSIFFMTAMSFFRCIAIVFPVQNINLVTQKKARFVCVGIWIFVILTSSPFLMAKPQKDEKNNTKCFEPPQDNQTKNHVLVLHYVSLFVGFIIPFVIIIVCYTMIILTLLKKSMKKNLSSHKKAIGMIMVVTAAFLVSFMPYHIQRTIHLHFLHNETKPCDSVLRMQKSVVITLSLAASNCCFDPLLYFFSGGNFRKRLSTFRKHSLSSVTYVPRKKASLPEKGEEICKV
UniProt P34981, whole entry: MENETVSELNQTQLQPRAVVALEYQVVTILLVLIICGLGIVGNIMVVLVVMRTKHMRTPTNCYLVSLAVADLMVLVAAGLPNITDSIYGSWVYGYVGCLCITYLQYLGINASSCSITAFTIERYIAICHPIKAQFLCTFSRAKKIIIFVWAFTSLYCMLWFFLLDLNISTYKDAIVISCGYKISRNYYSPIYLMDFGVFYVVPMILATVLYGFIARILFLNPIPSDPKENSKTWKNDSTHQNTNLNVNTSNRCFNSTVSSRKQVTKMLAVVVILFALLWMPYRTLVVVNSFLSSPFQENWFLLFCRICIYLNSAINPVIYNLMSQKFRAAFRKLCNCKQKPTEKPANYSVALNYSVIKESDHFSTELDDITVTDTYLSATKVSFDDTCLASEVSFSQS
UniProt P24530, 27-442 limits assumed: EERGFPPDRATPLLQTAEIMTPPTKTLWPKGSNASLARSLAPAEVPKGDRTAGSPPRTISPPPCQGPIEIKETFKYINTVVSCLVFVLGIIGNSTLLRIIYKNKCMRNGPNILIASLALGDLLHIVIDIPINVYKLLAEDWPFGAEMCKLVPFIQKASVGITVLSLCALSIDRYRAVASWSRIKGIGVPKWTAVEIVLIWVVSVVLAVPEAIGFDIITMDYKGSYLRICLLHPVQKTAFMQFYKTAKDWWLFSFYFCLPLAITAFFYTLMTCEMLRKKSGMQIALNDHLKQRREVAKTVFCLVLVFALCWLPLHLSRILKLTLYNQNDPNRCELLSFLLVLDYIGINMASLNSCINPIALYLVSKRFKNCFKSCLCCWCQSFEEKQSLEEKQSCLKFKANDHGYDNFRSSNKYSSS
UniProt P35367, whole entry: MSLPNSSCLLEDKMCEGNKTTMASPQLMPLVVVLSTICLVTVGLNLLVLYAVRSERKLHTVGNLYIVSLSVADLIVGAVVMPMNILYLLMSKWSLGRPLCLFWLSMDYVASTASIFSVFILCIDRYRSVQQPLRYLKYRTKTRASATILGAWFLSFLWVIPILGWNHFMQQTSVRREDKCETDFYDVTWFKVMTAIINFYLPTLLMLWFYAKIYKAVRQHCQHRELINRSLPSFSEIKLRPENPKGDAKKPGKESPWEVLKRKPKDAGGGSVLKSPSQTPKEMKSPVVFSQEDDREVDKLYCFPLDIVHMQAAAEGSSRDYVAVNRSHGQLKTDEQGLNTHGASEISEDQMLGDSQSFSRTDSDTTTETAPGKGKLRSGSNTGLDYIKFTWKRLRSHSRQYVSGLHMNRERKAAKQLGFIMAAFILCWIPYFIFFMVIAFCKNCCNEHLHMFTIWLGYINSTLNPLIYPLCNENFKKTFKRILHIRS
UniProt P41594, 21-1212 limits assumed: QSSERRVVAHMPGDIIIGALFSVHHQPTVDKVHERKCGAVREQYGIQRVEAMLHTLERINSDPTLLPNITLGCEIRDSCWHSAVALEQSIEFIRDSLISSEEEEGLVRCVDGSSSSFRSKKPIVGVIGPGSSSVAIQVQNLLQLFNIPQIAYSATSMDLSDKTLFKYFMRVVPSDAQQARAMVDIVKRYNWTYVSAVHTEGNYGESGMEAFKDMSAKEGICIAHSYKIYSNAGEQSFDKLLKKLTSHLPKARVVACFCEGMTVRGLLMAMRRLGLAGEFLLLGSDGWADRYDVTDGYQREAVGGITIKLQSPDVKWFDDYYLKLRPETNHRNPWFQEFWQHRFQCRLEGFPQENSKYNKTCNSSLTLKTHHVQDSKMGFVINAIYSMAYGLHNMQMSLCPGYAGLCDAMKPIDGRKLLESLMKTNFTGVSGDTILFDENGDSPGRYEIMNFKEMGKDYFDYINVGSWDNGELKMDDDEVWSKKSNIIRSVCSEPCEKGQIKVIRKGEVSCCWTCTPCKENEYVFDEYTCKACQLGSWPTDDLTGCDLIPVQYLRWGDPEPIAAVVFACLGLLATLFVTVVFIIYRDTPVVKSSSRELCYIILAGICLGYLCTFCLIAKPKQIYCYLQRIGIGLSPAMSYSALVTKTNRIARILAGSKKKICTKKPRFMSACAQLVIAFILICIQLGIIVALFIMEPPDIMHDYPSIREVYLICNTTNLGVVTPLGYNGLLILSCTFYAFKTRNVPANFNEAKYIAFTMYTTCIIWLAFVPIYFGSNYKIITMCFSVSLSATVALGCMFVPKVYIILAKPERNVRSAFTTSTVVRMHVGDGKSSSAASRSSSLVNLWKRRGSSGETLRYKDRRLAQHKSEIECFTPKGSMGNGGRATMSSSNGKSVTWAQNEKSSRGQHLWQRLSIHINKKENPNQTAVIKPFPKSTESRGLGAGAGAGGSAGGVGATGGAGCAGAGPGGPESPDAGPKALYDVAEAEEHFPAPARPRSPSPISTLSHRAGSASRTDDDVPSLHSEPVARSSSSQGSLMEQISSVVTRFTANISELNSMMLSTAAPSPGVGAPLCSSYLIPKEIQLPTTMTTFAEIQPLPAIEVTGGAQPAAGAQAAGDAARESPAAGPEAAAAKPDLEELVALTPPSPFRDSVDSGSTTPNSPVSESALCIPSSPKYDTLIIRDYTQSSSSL
UniProt P14867, 28-456 limits assumed: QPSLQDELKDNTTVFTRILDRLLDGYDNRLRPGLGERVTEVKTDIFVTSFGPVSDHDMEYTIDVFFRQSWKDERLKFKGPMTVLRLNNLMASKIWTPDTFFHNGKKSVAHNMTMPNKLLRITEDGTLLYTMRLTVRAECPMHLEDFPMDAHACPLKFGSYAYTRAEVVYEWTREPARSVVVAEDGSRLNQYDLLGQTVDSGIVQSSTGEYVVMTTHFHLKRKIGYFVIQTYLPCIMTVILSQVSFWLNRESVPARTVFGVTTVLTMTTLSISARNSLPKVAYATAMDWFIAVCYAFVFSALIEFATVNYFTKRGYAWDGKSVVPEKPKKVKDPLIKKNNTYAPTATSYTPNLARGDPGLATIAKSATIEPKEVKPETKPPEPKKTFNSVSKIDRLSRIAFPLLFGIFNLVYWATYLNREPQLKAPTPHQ
UniProt P34972, whole entry: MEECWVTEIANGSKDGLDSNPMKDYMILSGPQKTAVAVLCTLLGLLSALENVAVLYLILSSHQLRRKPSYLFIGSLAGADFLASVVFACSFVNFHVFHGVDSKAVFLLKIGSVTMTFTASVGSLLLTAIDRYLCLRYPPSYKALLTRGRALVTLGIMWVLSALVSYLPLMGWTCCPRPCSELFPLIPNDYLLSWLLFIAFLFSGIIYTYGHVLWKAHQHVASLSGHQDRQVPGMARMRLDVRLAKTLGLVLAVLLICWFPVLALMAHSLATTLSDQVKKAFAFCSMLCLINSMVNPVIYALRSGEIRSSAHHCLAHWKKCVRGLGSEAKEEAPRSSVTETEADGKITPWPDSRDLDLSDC
UniProt P21452, whole entry: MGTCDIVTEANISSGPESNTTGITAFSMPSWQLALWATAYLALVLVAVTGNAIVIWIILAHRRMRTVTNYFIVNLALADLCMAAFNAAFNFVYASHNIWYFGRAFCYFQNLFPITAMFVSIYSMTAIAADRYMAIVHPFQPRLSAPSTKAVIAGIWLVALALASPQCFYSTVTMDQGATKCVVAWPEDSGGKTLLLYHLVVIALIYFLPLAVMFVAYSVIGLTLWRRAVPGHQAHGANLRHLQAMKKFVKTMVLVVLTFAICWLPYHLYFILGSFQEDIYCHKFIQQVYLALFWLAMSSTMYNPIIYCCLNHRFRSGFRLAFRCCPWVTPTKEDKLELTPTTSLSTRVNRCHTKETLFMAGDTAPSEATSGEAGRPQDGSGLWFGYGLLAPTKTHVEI
UniProt P05177, whole entry: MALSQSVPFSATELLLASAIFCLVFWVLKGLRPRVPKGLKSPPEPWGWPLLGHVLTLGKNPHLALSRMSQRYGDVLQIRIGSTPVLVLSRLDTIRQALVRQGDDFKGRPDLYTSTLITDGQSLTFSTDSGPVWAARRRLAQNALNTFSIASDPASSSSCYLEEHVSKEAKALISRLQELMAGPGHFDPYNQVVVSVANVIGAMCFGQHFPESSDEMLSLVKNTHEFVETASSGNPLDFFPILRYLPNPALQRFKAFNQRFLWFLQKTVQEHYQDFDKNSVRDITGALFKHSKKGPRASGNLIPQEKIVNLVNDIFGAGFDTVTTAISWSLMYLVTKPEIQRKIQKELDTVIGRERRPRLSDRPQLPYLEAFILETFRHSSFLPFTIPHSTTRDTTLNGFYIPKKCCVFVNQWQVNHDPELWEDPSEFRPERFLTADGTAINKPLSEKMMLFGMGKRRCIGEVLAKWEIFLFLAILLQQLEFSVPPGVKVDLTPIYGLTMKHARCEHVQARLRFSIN
UniProt P10635, whole entry: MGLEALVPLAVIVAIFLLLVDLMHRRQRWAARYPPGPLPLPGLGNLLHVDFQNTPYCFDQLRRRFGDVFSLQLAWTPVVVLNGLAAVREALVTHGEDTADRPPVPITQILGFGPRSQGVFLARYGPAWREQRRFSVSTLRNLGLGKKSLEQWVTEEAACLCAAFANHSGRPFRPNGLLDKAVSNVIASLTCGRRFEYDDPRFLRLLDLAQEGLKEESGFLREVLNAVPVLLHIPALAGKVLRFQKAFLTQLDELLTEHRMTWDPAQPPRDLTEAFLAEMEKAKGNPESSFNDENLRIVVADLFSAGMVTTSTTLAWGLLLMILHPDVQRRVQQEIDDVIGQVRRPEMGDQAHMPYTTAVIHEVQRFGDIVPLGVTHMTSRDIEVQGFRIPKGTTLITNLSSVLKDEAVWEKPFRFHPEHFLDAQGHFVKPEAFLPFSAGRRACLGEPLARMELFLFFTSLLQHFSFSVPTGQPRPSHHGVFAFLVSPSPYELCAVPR
UniProt P33261, whole entry: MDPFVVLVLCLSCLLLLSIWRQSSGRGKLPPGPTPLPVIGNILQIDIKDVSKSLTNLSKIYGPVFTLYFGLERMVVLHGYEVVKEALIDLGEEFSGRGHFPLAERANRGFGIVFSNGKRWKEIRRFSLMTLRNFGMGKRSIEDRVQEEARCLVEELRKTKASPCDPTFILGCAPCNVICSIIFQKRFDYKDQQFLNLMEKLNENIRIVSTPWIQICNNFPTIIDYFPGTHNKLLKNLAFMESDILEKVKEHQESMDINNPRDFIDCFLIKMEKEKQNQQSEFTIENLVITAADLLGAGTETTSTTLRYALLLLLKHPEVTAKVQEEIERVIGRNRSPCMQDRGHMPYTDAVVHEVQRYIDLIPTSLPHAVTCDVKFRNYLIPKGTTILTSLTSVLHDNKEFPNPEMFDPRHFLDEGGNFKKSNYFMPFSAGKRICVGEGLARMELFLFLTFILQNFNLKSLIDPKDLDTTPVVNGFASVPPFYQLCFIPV
UniProt P11509, whole entry: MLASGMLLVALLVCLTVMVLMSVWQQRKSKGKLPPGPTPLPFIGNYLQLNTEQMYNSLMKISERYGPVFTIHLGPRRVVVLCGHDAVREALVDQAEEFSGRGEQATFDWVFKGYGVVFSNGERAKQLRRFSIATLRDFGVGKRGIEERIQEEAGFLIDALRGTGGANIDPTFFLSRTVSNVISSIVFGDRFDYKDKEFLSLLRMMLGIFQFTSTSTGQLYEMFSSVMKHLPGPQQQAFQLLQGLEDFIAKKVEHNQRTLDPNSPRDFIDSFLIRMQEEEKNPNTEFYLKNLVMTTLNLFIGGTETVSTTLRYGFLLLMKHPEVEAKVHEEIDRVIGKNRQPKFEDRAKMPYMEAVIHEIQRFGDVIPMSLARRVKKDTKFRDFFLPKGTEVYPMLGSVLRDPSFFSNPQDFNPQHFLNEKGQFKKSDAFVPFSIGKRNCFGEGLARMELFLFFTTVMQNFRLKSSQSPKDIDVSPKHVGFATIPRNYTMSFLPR
UniProt P08684, whole entry: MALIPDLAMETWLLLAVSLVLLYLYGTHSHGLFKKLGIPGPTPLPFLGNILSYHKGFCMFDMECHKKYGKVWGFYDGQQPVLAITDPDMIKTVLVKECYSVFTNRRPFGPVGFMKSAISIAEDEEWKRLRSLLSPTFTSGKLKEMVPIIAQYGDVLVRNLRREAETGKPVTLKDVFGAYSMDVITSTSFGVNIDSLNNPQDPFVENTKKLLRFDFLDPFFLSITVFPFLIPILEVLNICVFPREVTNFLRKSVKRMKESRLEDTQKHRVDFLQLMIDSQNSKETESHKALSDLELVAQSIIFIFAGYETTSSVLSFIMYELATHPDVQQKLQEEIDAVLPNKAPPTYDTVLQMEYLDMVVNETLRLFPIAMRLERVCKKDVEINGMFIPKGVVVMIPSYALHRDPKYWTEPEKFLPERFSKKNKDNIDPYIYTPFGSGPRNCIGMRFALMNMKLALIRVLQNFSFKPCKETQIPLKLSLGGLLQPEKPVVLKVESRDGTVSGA

C[C@@H](O)[C@@H]1NC(=O)[C@H]2NC(=O)[C@@H](NC(=O)CN)CSSC[C@H](NC(=O)[C@H](CCCNC(=N)N)NC(=O)[C@@H]3CCCN3C(=O)[C@H](CC(=O)O)NC1=O)C(=O)N[C@@H](CCCNC(=N)N)C(=O)N[C@@H](Cc1ccc(O)c(I)c1)C(=O)N[C@@H](CCC(N)=O)C(=O)N[C@H](C(=O)N[C@H](CC(=O)N[C@@H](CCCNC(=N)N)C(=O)O)Cc1ccc(O)cc1)CSSC2(C)C was tested, and the “Inhibition [%]” value (Adenosine A2A) was −15.7%, the “Inhibition [%]” value (Opioid NOP (ORL1)) was 2.7% and the “Inhibition [%]” value [1] was −14.8%. The “Inhibition [%]” value (Neurokinin NK3) was −35.5%, the “Inhibition [%]” value (Adenosine A1) was 0.2% and the “Inhibition [%]” value [2] was −3.2%. For the same compound, the “Inhibition [%]” value (Glutamate AMPA site) was −4.5%, the “Inhibition [%]” value (Cannabinoid CB1) was 27.6% and the “Inhibition [%]” value [3] was −10.1%. The “Inhibition [%]” value [4] was −8.7%, the “Inhibition [%]” value (Endothelin ETB) was −5.3% and the “Inhibition [%]” value (Histamine H1) was −0.2%. For the same compound, the “Inhibition [%]” value [5] was −0.4%, the “Inhibition [%]” value [6] was 0.7% and the “Inhibition [%]” value [7] was 7.7%. The “Inhibition [%]” value [8] was 0.8%, the “Inhibition [%]” value (Cannabinoid CB2) was −8.3% and the “Inhibition [%]” value (Neurokinin NK2) was 41.6%. The “Inhibition [%]” value (Opioid κ (KOP)) was 2.6%, the “Inhibition [%]” value (Androgen Receptor) was 3.4% and the “Inhibition [%]” value [9] was 8.7%. For the same compound, the IC50 [10] was greater than 100 µM, the “Inhibition [%]” value (CYP1A2) was −3.8% and the “Inhibition [%]” value (CYP2D6) was −1.6%. For the same compound, the “Inhibition [%]” value (CYP2C19) was −1.9%, the “Inhibition [%]” value (CYP2C9) was 3.1% and the “Inhibition [%]” value (CYP2A6) was 0.3%. The “Inhibition [%]” value (CYP3A4) was −2.0%, the tolerance ([11]; constant dose of RgIA-5474) was “Tolerance was not observed” and the “onset of the therapeutic effect” value ([11]; doses given over a period of three weeks) was “not apparent until after 15 doses”. The “persistence of the therapeutic effect after cessation of treatment” value ([11]; mice tested weekly after day 22) was “persisted for four-weeks after cessation of treatment”.

— US20240269228A1 (priority 2021, published 2024)
